In patent US8101573:

Key:
[1] = target: Mouse CNS α-MII site (native [125I]α-conotoxin MII-binding nAChRs in mouse brain homogenates) (mouse), Q9R0W9
[2] = target: Rat α4β2 nAChR (rat), P09483; assay: cell-based or functional assay
[3] = target: Rat α3β2 nAChR (rat), P04757; assay: cell-based or functional assay
[4] = target: Rat α6/α3β2β3 nAChR (rat), P43143; assay: cell-based or functional assay
[5] = target: Rat α6/α3β2 nAChR (rat), P43143; assay: cell-based or functional assay
[6] = target: Rat α3β4 nAChR (rat), P04757; assay: cell-based or functional assay
[7] = target: Rat α4β4 nAChR (rat), P09483; assay: cell-based or functional assay
[8] = target: Rat α2β2 nAChR (rat), P12389; assay: cell-based or functional assay
[9] = target: Rat α6/α3β4 nAChR (rat), P43143; assay: cell-based or functional assay
[10] = target: Rat α7 nAChR (rat), Q05941; assay: cell-based or functional assay
[11] = target: Rat α2β4 nAChR (rat), P12389; assay: cell-based or functional assay

Binder: GCCSNPVCALEHSNLC (modifications not checked) [α-Conotoxin MII analog H9A]
- Ki [1]: 1.1 nM
- ACh-evoked current, % of control, at 10 µM peptide [2]: 106 % of control
- IC50, block of ACh-induced current in X. laevis oocytes [3]: 59 nM
- IC50 Rat α3β2, functional block of ACh-induced current [3]: 59 nM
- Ratio: IC50 α3β2/IC50 α6/α3β2β3 [3]: 74.7

Binder: GCCSNPVCHLEHSNAC (modifications not checked) [α-Conotoxin MII analog L15A]
- Ki [1]: 0.3 nM
- ACh-evoked current, % of control, at 10 µM peptide [2]: 102 % of control
- IC50 Rat α3β2, functional block of ACh-induced current [3]: 34 nM
- Ratio: IC50 α3β2/IC50 α6/α3β2β3 [3]: 37.2

Binder: GCCANPVCHLEHSNLC (modifications not checked) [α-Conotoxin MII analog S4A]
- t1/2 for recovery from toxin block [4]: > 25 min
- Ratio: IC50 α3β2/IC50 α6/α3β2β3 [3]: 21.6

Binder: GCCSNPVCHAEHSNLC (modifications not checked) [α-Conotoxin MII analog L10A]
- t1/2 for recovery from toxin block [4]: > 25 min
- Ratio: IC50 α3β2/IC50 α6/α3β2β3 [3]: 3.05

Binder: GCCSNPVCHLEHANLC (modifications not checked) [α-Conotoxin MII analog S13A]
- t1/2 for recovery from toxin block [4]: > 25 min
- Ratio: IC50 α3β2/IC50 α6/α3β2β3 [3]: 3.85

Binder: GCCSNPVCHLEHSALC (modifications not checked) [α-Conotoxin MII analog N14A]
- IC50, block of ACh-induced current in X. laevis oocytes [4]: 1.06 nM
- t1/2 for recovery from toxin block [4]: > 25 min
- Ratio: IC50 α3β2/IC50 α6/α3β2β3 [3]: 24.2

Binder: GCCSNAVCHLEHSNLC (modifications not checked) [α-Conotoxin MII analog P6A]
- Ratio: IC50 α3β2/IC50 α6/α3β2β3 [3]: 17.5

Binder: GCCSNPACHLEHSNLC (modifications not checked) [α-Conotoxin MII analog V7A]
- IC50, block of ACh-induced current in X. laevis oocytes [4]: 10.6 nM
- Ratio: IC50 α3β2/IC50 α6/α3β2β3 [3]: 0.421

Binder: GCCSNPVCHLAHSNLC (modifications not checked) [α-Conotoxin MII analog E11A]
- Ki [1]: 0.27 nM
- Ratio: nAChR subtype IC50/α6/α3β2β3 IC50 [5]: 0.962
- IC50, block of ACh-induced current in X. laevis oocytes [6]: 2100 nM
- Ratio: nAChR subtype IC50/α6/α3β2β3 IC50 [6]: 13100
- IC50, block of ACh-induced current in X. laevis oocytes [7]: > 10000 nM
- Ratio: nAChR subtype IC50/α6/α3β2β3 IC50 [7]: > 62500
- IC50, block of ACh-induced current in X. laevis oocytes [8]: > 10000 nM
- Ratio: nAChR subtype IC50/α6/α3β2β3 IC50 [8]: > 62500
- Ratio: nAChR subtype IC50/α6/α3β2β3 IC50 [9]: 40.3
- IC50, block of ACh-induced current in X. laevis oocytes [10]: 1050 nM
- Ratio: nAChR subtype IC50/α6/α3β2β3 IC50 [10]: 6570
- IC50, block of ACh-induced current in X. laevis oocytes [11]: > 10000 nM
- Ratio: nAChR subtype IC50/α6/α3β2β3 IC50 [11]: > 62500
- IC50 Rat α3β2, functional block of ACh-induced current [3]: 8.7 nM
- Ratio: IC50 α3β2/IC50 α6/α3β2β3 [3]: 54.5
- Ratio: nAChR subtype IC50/α6/α3β2β3 IC50 [3]: 54.5

Binder: GCCSNPVCHLEASNLC (modifications not checked) [α-Conotoxin MII analog H12A]
- IC50, block of ACh-induced current in X. laevis oocytes [4]: 604 nM
- Ratio: IC50 α3β2/IC50 α6/α3β2β3 [3]: 7.72

Binder: GCCANPVCALEHSNLC (modifications not checked) [α-Conotoxin MII analog S4A; H9A]
- IC50, block of ACh-induced current in X. laevis oocytes [3]: 207 nM
- Ratio: IC50 α3β2/IC50 α6/α3β2β3 [3]: 105

Binder: GCCSNPVCHAEHSNAC (modifications not checked) [α-Conotoxin MII analog L10A; L15A]
- IC50, block of ACh-induced current in X. laevis oocytes [4]: 1.8 nM
- Ratio: IC50 α3β2/IC50 α6/α3β2β3 [3]: 9.56

Binder: GCCSNPVCHLAHSNAC (modifications not checked) [α-Conotoxin MII analog E11A; L15A]
- IC50, block of ACh-induced current in X. laevis oocytes [3]: 50.1 nM
- Ratio: IC50 α3β2/IC50 α6/α3β2β3 [3]: 121

Binder: GCCSNPVCALEHSNAC (modifications not checked) [α-Conotoxin MII analog H9A; L15A]
- Ki [1]: 3.3 nM
- ACh response, percentage of control, at 1 µM MII[H9A; L15A] [7]: 100 % of control
- ACh response, percentage of control, at 10 µM MII[H9A; L15A] [7]: 99 % of control
- ACh response, percentage of control, at 1 µM MII[H9A; L15A] [2]: 101 % of control
- ACh response, percentage of control, at 10 µM MII[H9A; L15A] [2]: 98.5 % of control
- ACh response, percentage of control, at 1 µM MII[H9A; L15A] [8]: 103 % of control
- ACh response, percentage of control, at 10 µM MII[H9A; L15A] [8]: 102 % of control
- ACh response, percentage of control, at 1 µM MII[H9A; L15A] [10]: 100 % of control
- ACh response, percentage of control, at 10 µM MII[H9A; L15A] [10]: 61.4 % of control
- ACh response, percentage of control, at 1 µM MII[H9A; L15A] [11]: 95.9 % of control
- ACh response, percentage of control, at 10 µM MII[H9A; L15A] [11]: 96.7 % of control

Binder: GCCSAPVCHLEHSNLC (modifications not checked) [α-Conotoxin MII analog N5A]
- Ratio: IC50 α3β2/IC50 α6/α3β2β3 [3]: > 12.6
